Results published in article PMC4624963, “Enzymatic Characterization of Recombinant Food Vacuole Plasmepsin 4 from the Rodent Malaria Parasite Plasmodium berghei” (PLoS ONE, 2015).

By UniProt entry, the sequences of proteins in these tests, tags left out. Residues count along the entry.
UniProt O76965, 118-450 limits assumed: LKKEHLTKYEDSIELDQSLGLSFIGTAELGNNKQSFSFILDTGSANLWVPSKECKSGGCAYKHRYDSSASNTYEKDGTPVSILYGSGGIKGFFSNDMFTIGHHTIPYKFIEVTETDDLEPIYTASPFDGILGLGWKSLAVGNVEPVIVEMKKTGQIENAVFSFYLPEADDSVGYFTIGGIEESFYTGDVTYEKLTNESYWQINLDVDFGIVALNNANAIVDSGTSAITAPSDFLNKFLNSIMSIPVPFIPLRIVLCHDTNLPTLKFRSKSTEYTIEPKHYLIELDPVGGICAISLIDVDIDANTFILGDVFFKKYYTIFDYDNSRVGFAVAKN

Biological target: PbPM4 (Plasmodium berghei, UniProt O76965)
Test: Inhibition of mature PbPM4, dissociation constants (Ki) from initial cleavage velocities of a chromogenic peptide substrate
Format: biochemical
Conditions: sodium citrate pH 5.0, 37°C, 5 min pre-equilibrium

Work on CC(C)CC(C=O)NC(=O)C(Cc1ccccc1)NC(=O)C(Cc1ccccc1)NC(=O)OCc1ccccc1 (stereo not shown) yielded a Ki of 135 nM.
